Consider 26 compounds from patent US10233179B2, “Thiazoles and uses thereof” (AbbVie Inc., priority 2013, dated 2019).

A value given as a limit tells only on which side of the number the result lay.

The data set has as its system RSV (Group A, Long Strain). Kind of data set: Antiviral cytopathic effect (CPE) protection assay, MTT readout. Further details: key: NW: No window. Particulars: ratio of MTT TD50 to RSV EC50; NW = no window. It counts as cell-based, human respiratory syncytial virus (RSV). On the procedure: HEp-2 cells and RSV (Group A, Long Strain) were obtained from the American Type Culture Collection (Manassas, Va.).
A cytopathic effect (CPE) protection assay was performed to determine the ability of a compound to protect the cells from viral infection and thus the CPE induced by viral infection. 96-Well plates were first seeded with 3×10^3 HEp-2 cells per well in Dulbecco's modified Eagle's medium (DMEM) containing 10% fetal bovine serum (FBS). One day after the cells were seeded, they were preincubated with serial dilutions of compounds prepared in 100 μL assay medium (DMEM mixed with F12 medium at a 1:1 ratio, supplemented with 2% FBS and 1 mM sodium pyruvate) for 1 hour at 37° C. 100 μL of assay medium containing 0.2 multiplicity of infection (MOI) of RSV was then added to each well of cells. In addition to wells containing infected cells incubated with compounds, each plate also contained replicates of two kinds of controls: (1) Virus control contained cells infected with 0.2 MOI of RSV in assay medium, (2) Uninfected cell control contained cells incubated with assay medium only. After 4 days of incubation at 37° C., the viability of cells was assessed using MTT (Thiazolyl blue tetrazolium bromide, Sigma). A stock solution of MTT, at a concentration of 4 mg/mL in phosphate-buffered saline, was added to all wells at 25 μL per well. Plates were further incubated for 4 hours, and each well was then treated with 50 μL of a solution containing 20% sodium dodecyl sulfate (SDS) and 0.02 N HCl. After an overnight incubation, the plates were measured on a BioTek® microtiter plate reader at wavelengths of 570 nm and 650 nm. The MTT detection is based on the fact that viable (uninfected) cells can reduce the tetrazolium salts into colored formazan products, which can then be quantitated by spectrometry. Based on the spectrometric absorbance of each sample, the percent of protection from CPE, which is an indicator of protection from viral infection, can be calculated for each compound and the 50% effective concentrations (EC50) can be calculated using a nonlinear regression curve fitting equation provided by the GraphPad Prism® 4 software.
Compounds were tested to determine both their antiviral and toxicity to determine their therapeutic window. Determination of the EC50 and TD50 of these active compounds were repeated one additional time to confirm the window.
Turning to `c1ccc(CN(Cc2cccn2-c2nccs2)Cc2cccn2-c2nccs2)cc1` [Example 31, 1-phenyl-N,N-bis{[1-(1,3-thiazol-2-yl)-1H-pyrrol-2-yl]methyl}methanamine], the “Window (TD50/EC50)” value came out at 48.

With `c1cc(CN(Cc2cccn2-c2nccs2)CC2C[C@H]3CC[C@@H]2C3)n(-c2nccs2)c1` (stereo partly drawn) [Example 32, 1-[(1R,4S)-bicyclo[2.2.1]hept-2-yl]-N,N-bis{[1-(1,3-thiazol-2-yl)-1H-pyrrol-2-yl]methyl}methanamine], the “Window (TD50/EC50)” value was determined as 10.

`c1cc(CN(Cc2cccn2-c2nccs2)CC2CCCO2)n(-c2nccs2)c1` (centres unmarked) [Example 33, 1-(tetrahydrofuran-2-yl)-N,N-bis{[1-(1,3-thiazol-2-yl)-1H-pyrrol-2-yl]methyl}methanamine]: the “Window (TD50/EC50)” value was determined as 3.

For the compound `FC(F)(F)c1ccc(CN(Cc2cccn2-c2nccs2)Cc2cccn2-c2nccs2)cc1` [Example 34, 1-[1-(1,3-thiazol-2-yl)-1H-pyrrol-2-yl]-N-{[1-(1,3-thiazol-2-yl)-1H-pyrrol-2-yl]methyl}-N-[4-(trifluoromethyl)benzyl]methanamine], the “Window (TD50/EC50)” value came out at 10.

For the compound `Cc1cc(N(Cc2cccn2-c2nccs2)Cc2cccn2-c2nccs2)n(-c2ccccc2)n1` [Example 35, 3-methyl-1-phenyl-N,N-bis{[1-(1,3-thiazol-2-yl)-1H-pyrrol-2-yl]methyl}-1H-pyrazol-5-amine], the “Window (TD50/EC50)” value is reported as above 677.

Take `Clc1cccc(Cl)c1CN(Cc1cccn1-c1nccs1)Cc1cccn1-c1nccs1` [Example 36, 1-(2,6-dichlorophenyl)-N,N-bis{[1-(1,3-thiazol-2-yl)-1H-pyrrol-2-yl]methyl}methanamine]: the “Window (TD50/EC50)” value is 719.

For `Cc1ccccc1CN(Cc1cccn1-c1nccs1)Cc1cccn1-c1nccs1` [Example 37, 1-(2-methylphenyl)-N,N-bis{[1-(1,3-thiazol-2-yl)-1H-pyrrol-2-yl]methyl}methanamine], the “Window (TD50/EC50)” value came to 213.

For the compound `Clc1cnc(CN(Cc2cccn2-c2nccs2)Cc2cccn2-c2nccs2)c(Cl)c1` [Example 38, 1-(3,5-dichloropyridin-2-yl)-N,N-bis{[1-(1,3-thiazol-2-yl)-1H-pyrrol-2-yl]methyl}methanamine], the “Window (TD50/EC50)” value is listed as 35.

With `CC(C)CN(Cc1cccn1-c1nccs1)Cc1cccn1-c1nccs1` [Example 39, 2-methyl-N,N-bis{[1-(1,3-thiazol-2-yl)-1H-pyrrol-2-yl]methyl}propan-1-amine], the “Window (TD50/EC50)” value stood at 2.

On to `Fc1ccccc1CN(Cc1cccn1-c1nccs1)Cc1cccn1-c1nccs1` [Example 40, 1-(2-fluorophenyl)-N,N-bis{[1-(1,3-thiazol-2-yl)-1H-pyrrol-2-yl]methyl}methanamine], for which the “Window (TD50/EC50)” value was 353.

As for `Cc1c(C(C)N(Cc2cccn2-c2nccs2)Cc2ncc(-c3ccccc3)n2C)cnn1-c1cccc(F)c1` (centres unmarked) [Example 41, 1-[1-(3-fluorophenyl)-5-methyl-1H-pyrazol-4-yl]-N-[(1-methyl-5-phenyl-1H-imidazol-2-yl)methyl]-N-{[1-(1,3-thiazol-2-yl)-1H-pyrrol-2-yl]methyl}ethanamine], the “Window (TD50/EC50)” value is “NW”.

`Clc1ccc(CN(Cc2cccn2-c2nncs2)Cc2cccn2-c2nncs2)c(Cl)c1` [Example 42, 1-(2,4-dichlorophenyl)-N,N-bis{[1-(1,3,4-thiadiazol-2-yl)-1H-pyrrol-2-yl]methyl}methanamine]: the “Window (TD50/EC50)” value is given as “NW”.

For the compound `Cc1cc(N(Cc2cccn2-c2nncs2)Cc2cccn2-c2nncs2)n(-c2ccc(F)cc2)n1` [Example 43, 1-(4-fluorophenyl)-3-methyl-N,N-bis{[1-(1,3,4-thiadiazol-2-yl)-1H-pyrrol-2-yl]methyl}-1H-pyrazol-5-amine], the “Window (TD50/EC50)” value is reported as “NW”.

For the compound `FC(F)(F)c1cccc(CN(Cc2cccn2-c2nccs2)Cc2cccn2-c2nccs2)c1` [Example 44, 1-[1-(1,3-thiazol-2-yl)-1H-pyrrol-2-yl]-N-{[1-(1,3-thiazol-2-yl)-1H-pyrrol-2-yl]methyl}-N-[3-(trifluoromethyl)benzyl]methanamine], the “Window (TD50/EC50)” value came out at 327.

Regarding `N#Cc1ccc(CN(Cc2cccn2-c2nccs2)Cc2cccn2-c2nccs2)cc1` [Example 45, 4-[(bis{[1-(1,3-thiazol-2-yl)-1H-pyrrol-2-yl]methyl}amino)methyl]benzonitrile], the “Window (TD50/EC50)” value is on record as above 33.

As to `CC(c1ccc(Cl)c(Cl)c1)N(Cc1cccn1-c1nccs1)Cc1cccn1-c1nccs1` (centres unmarked) [Example 46, 1-(3,4-dichlorophenyl)-N,N-bis{[1-(1,3-thiazol-2-yl)-1H-pyrrol-2-yl]methyl}ethanamine], the “Window (TD50/EC50)” value is above 58.

With `Clc1ccccc1CN(Cc1cccn1-c1nccs1)Cc1cccn1-c1nccs1` [Example 47, 1-(2-chlorophenyl)-N,N-bis{[1-(1,3-thiazol-2-yl)-1H-pyrrol-2-yl]methyl}methanamine], the “Window (TD50/EC50)” value turned out to be 472.

`C[C@H](c1ccccc1Cl)N(Cc1cccn1-c1nccs1)Cc1cccn1-c1nccs1` [Example 48, (1R)-1-(2-chlorophenyl)-N,N-bis{[1-(1,3-thiazol-2-yl)-1H-pyrrol-2-yl]methyl}ethanamine]: the “Window (TD50/EC50)” value turned out to be 63.

In the case of `C[C@@H](c1ccccc1Cl)N(Cc1cccn1-c1nccs1)Cc1cccn1-c1nccs1` [Example 49, (1S)-1-(2-chlorophenyl)-N,N-bis{[1-(1,3-thiazol-2-yl)-1H-pyrrol-2-yl]methyl}ethanamine], the “Window (TD50/EC50)” value was determined as 97.

`c1cnnc(N(Cc2cccn2-c2nccs2)Cc2cccn2-c2nccs2)c1` [Example 50, N,N-bis{[1-(1,3-thiazol-2-yl)-1H-pyrrol-2-yl]methyl}pyridazin-3-amine]: the “Window (TD50/EC50)” value is listed as “NW”.

Take `c1ccc(C2(CCN(Cc3cccn3-c3nccs3)Cc3cccn3-c3nccs3)CC2)nc1` [Example 51, 2-[1-(pyridin-2-yl)cyclopropyl]-N,N-bis{[1-(1,3-thiazol-2-yl)-1H-pyrrol-2-yl]methyl}ethanamine]: the “Window (TD50/EC50)” value turned out to be 137.

Take `c1cc(CN(Cc2cccn2-c2nccs2)C2CCCCC2)n(-c2nccs2)c1` [Example 52, N,N-bis{[1-(1,3-thiazol-2-yl)-1H-pyrrol-2-yl]methyl}cyclohexanamine]: the “Window (TD50/EC50)” value turned out to be 72.

`c1ccc(N(Cc2cccn2-c2nccs2)Cc2cccn2-c2nccs2)cc1` [Example 53, N,N-bis{[1-(1,3-thiazol-2-yl)-1H-pyrrol-2-yl]methyl}aniline]: the “Window (TD50/EC50)” value was above 12.

As for `FC(F)(F)c1ccc(CN(Cc2cccn2-c2nncs2)Cc2cccn2-c2nncs2)cc1` [Example 54, 1-[1-(1,3,4-thiadiazol-2-yl)-1H-pyrrol-2-yl]-N-{[1-(1,3,4-thiadiazol-2-yl)-1H-pyrrol-2-yl]methyl}-N-[4-(trifluoromethyl)benzyl]methanamine], the “Window (TD50/EC50)” value was “NW”.

Regarding `Clc1cccc(Cl)c1CN(Cc1cccn1-c1nncs1)Cc1cccn1-c1nncs1` [Example 55, 1-(2,6-dichlorophenyl)-N,N-bis{[1-(1,3,4-thiadiazol-2-yl)-1H-pyrrol-2-yl]methyl}methanamine], the “Window (TD50/EC50)” value is reported as “NW”.

Turning to `N#Cc1ccc(CN(Cc2cccn2-c2nncs2)Cc2cccn2-c2nncs2)cc1` [Example 56, 4-[(bis{[1-(1,3,4-thiadiazol-2-yl)-1H-pyrrol-2-yl]methyl}amino)methyl]benzonitrile], the “Window (TD50/EC50)” value is above 2.2.
